Compound potency records, mixed from different reports. Data source: NIAID ChemDB in PubChem.

Shared fields: growth or infection tests; species: Mycobacterium avium; read-out: MIC

Blank or dashed fields: not listed here.

| SMILES | strain | method | conditions | value |
|---|---|---|---|---|
| CCCCOc1ccc(NC(=S)Nc2ccc(OCCN(CC)CC)cc2)cc1 | 299 | - | - | 16.6 µg/mL |
| C[C@H]1NCc2cc(-c3ccc4c(=O)c(C(=O)O)cn(C5CC5)c4c3OC(F)F)ccc21 | 1 isolates | - | - | 16 µg/mL |
| COc1ccccc1/C=N/N=C(\N)c1ccncc1 | INH resistant | - | - | 128 µg/mL |
| O=c1oc2ccc(Br)cc2c(=S)n1-c1cccc(Cl)c1 | MY330/88 | - | 14 d | 16 µM |
| Oc1cc(Cl)ccc1C(=S)NCc1ccc(F)cc1 | MY330/88 | - | - | 8 µg/mL |
| Fc1ccc(CSc2ncn[nH]2)cc1 | MY330/88 | - | - | 500 µM |
| NC(=Nc1ccc2ccc3cccnc3c2n1)c1ccccc1 | SN 304 | - | - | 8 µg/mL |
| CCCCOc1ccc(NC(=O)OCCC[NH+]2CCCCC2)cc1 | MY330/88 | - | - | 125 µM |
| CCCCCCCCN(CCCCCCCC)C(=O)NC(CCC(=O)O)(CCC(=O)O)CCC(=O)O | VA14 | - | - | 13.5 µg/mL |
| c1ccc(-c2ccc(CNc3ccccc3N3CCOCC3)cc2)cc1 | 103317 | - | - | 4 µg/mL |
| Cc1ccc2oc(=S)n(-c3ccc(Cl)cc3)c(=S)c2c1 | MY330/88 | - | 21 d | 4 µM |
| O=c1oc2ccc([N+](=O)[O-])cc2c(=O)n1Cc1ccc(Cl)c(Cl)c1 | MY330/88 | - | - | 250 µM |
| CCCCCCOc1ccc(NC(=O)OCCC[NH+]2CCCCC2)cc1 | MY330/88 | - | - | 16 µM |
| CC[C@H](CO)NCC[C@H]1O[C@H](O[C@H]2O[C@H](CCN[C@H](CC)CO)[C@@H](O)[C@H](O)[C@H]2O)[C@H](O)[C@@H](O)[C@@H]1O | 3 to 5 clinical isolates | - | - | >128 µg/mL |
| C[C@@H]([C@H](NC(=O)[C@H](CC1CCCCC1)NC(=O)N[C@@H](Cc1c[nH]c2ccccc12)C(=O)NCC(C)(C)C)C(=O)NC[C@H]1C[C@@H](O)[C@H](n2ccc(=O)[nH]c2=O)O1)N(C)C(=O)CN | CA6 | resazurin / fluorescence | - | 0.704 µM |
| COc1ccc2oc(=O)n(-c3ccccc3)c(=S)c2c1 | MY330/88 | - | 21 d | 32 µM |
| CCC(CO)NC[C@H]1OC(OC)[C@@H](O)[C@@H]1O | 3 to 5 clinical isolates | - | - | >128 µg/mL |
| NC(=Nc1nc(-c2ccccn2)cc2ccccc12)c1ccccn1 | SN 304 | - | - | 2 µg/mL |
| CCCCCCCC(CCCCCCC)NC(=O)NC(CCC(=O)O)(CCC(=O)O)CCC(=O)O | VA14 | - | - | 108 µg/mL |
| COc1ccc(CSc2nc3ccc(C)cc3[nH]2)cc1 | MY330/88 | - | - | >62 µM |
| NC(=Nc1ccc2ccc3cccnc3c2n1)c1ccccn1 | SN 304 | - | - | 8 µg/mL |
| CCCCCCCCCCCN(CCCCCCCCCCC)C(=O)NC(CCC(=O)O)(CCC(=O)O)CCC(=O)O | VA14 | - | - | 72 µg/mL |
| CO[C@H]1[C@@H](O)[C@H](n2ccc(=O)[nH]c2=O)O[C@@H]1[C@@H](O[C@H]1OC(C(=O)N[C@H]2CCC[C@@H](C)NC2=O)=C[C@H](O)[C@@H]1O)C(N)=O | complex strain 101 | broth dilution | - | 8 µg/mL |
| Fc1ccc(C(Cn2ccnc2)NC/C=C/c2ccccc2)cc1 | CIP103317 | - | - | >16 µg/mL |
| CCCCCCCCCCN(CCCCCCCCCC)C(=O)NC(CCC(=O)O)(CCC(=O)O)CCC(=O)O | VA14 | - | - | 9 µg/mL |
| N#Cc1ccc(/C=N/N=C(\N)c2ccncc2)cc1 | INH resistant | - | - | 256 µg/mL |
| Clc1ccc(C(Cn2ccnc2)NCc2ccc(-c3ccccc3)cc2)cc1 | CIP103317 | - | - | 8 µg/mL |
| c1ccc(-c2ccc(CNc3ccc(-n4ccnc4)cc3)cc2)cc1 | 103317 | - | - | 4 µg/mL |
| O=C(Nn1cncn1)c1cc(Cl)ccc1O | MY330/88 | - | - | 1000 µM |
| Clc1ccc(CNc2ccc(-n3ccnc3)cc2)cc1 | 103317 | - | - | 1 µg/mL |
| Cc1ccc(-n2c(=O)oc3ccc(C)cc3c2=S)cc1 | MY330/88 | - | 14 d | 1 µM |
| CN[C@@H]1[C@H](O[C@H]2[C@H](O[C@H]3[C@H](O)[C@@H](O)[C@H](N=C(N)N)[C@@H](O)[C@@H]3N=C(N)N)O[C@@H](C)[C@]2(O)C=O)O[C@@H](CO)[C@H](O)[C@H]1O | Strain 1 | - | - | 3.13 µg/mL |
| N/C(=N\N=C\c1ccccc1Br)c1ccncc1 | INH resistant | - | - | 64 µg/mL |
| CCCCCCCCOc1ccccc1NC(=O)OCCC[NH+]1CCCCC1 | MY330/88 | - | - | 8 µM |
| c1ccc(C(Cn2ccnc2)NCc2cccc3ccccc23)cc1 | CIP103317 | - | - | 8 µg/mL |
| Cc1csc(NC(=O)c2cc(Cl)ccc2O)n1 | MY330/88 | - | - | 62.5 µM |
| CCCCCC(O)CC(=O)CCc1ccc(O)c(OC)c1 | - | - | - | >100 µg/mL |
| CC1=CCC[C@@]2(C)O[C@H]2[C@H]2OC(=O)[C@@H](C)[C@@H]2CC1 | - | - | - | 128 µg/mL |
| CC(C)(C)OCOC(=O)c1cnccn1 | ATCC 25291 | - | - | 25 µg/mL |
| CCOc1cccc(NC(=O)OCCC[NH+]2CCCCC2)c1 | MY330/88 | - | - | 250 µM |
| Brc1cncnc1-c1ccc(-c2ccccc2)s1 | - | broth dilution | - | 0.7 µg/mL |
| Cc1ccc(CNC(=O)c2cc(C)ccc2O)cc1 | MY330/88 | - | - | 62.5 µg/mL |
| O=C(Nc1ccc2ccc3cccnc3c2n1)c1ccccc1 | SN 304 | - | - | 2 µg/mL |
| CCOc1ccc(NC(=S)Nc2ccc(OCC(C)C)cc2)cc1 | 299 | - | - | 31.3 µg/mL |
| COc1ccc(Cn2c(=O)oc3cc(Cl)ccc3c2=O)cc1 | MY330/88 | - | - | 125 µM |
| Oc1cc(Br)ccc1C(=S)NCc1ccc(Cl)c(Cl)c1 | MY330/88 | - | - | 16 µg/mL |
| CCSSC(SC)C(N)=O | 225 | - | - | 1000 µM |
| Brc1ccc(CSc2ncn[nH]2)cc1 | MY330/88 | - | - | 250 µM |
| Cc1ccc2nc(SCc3cccc(C(N)=S)c3)[nH]c2c1 | MY330/88 | - | - | 62 µM |
| CCCCCCCOc1cccc(NC(=O)OCC[NH+]2CCCC2)c1 | MY330/88 | - | - | 16 µM |
| COc1cc(/C=N/N=C(\N)c2ccncc2)cc(OC)c1OC | INH resistant | - | - | 256 µg/mL |
| CCCCOc1ccc(NC(=S)Nc2ccc(N(C)C)cc2)cc1 | 299 | - | - | 2 µg/mL |
| CCC(C)c1ccc(NC(=O)CCC(=O)Nc2ccc(C(C)CC)cc2)cc1 | NO 80/72 | - | - | 63 µM |
| CCCCc1ccc2nc(C)cc(NN)c2c1 | ATCC 25291 | - | - | 3.13 µg/mL |
| NCCC(O)C(N)CC(=O)NC1CNC(=O)C(C2CCN=C(N)N2)NC(=O)/C(=C/NC(N)=O)NC(=O)C(CO)NC(=O)C(CO)NC1=O | F | - | - | 1.6 µg/mL |
| Clc1ccc(C(Cn2ccnc2)NC/C=C/c2ccccc2)c(Cl)c1 | CIP103317 | - | - | >16 µg/mL |
| O=C(C/C=C/c1ccccc1)Nc1ccc(N2CCSCC2)cc1 | 103317 | - | - | 4 µg/mL |
| CCCCCCCCCCCCOc1ccccc1NC(=O)OCCC[NH+]1CCCCC1 | MY330/88 | - | - | 16 µM |
| CC[C@@H](CO)NCC[C@H]1O[C@H](O[C@H]2O[C@H](CCN[C@@H](CC)CO)[C@@H](O)[C@H](O)[C@H]2O)[C@H](O)[C@@H](O)[C@@H]1O | 3 to 5 clinical isolates | - | - | >128 µg/mL |
| FC(F)(F)c1ccc(-n2c(=S)oc3ccc(Br)cc3c2=S)cc1 | MY330/88 | - | 14 d | 62.5 µM |
| CCOc1cccc(NC(=O)OCC[NH+]2CCCC2)c1 | MY330/88 | - | - | 1000 µM |
| Cc1cccc(O)c1C(=S)NCc1ccc(Cl)cc1 | MY330/88 | - | - | 1 µg/mL |
| Clc1ccc(C(Cn2ccnc2)NC/C=C/c2ccccc2)cc1 | CIP103317 | - | - | >16 µg/mL |
| Cc1ccc2nc(SCc3ccccc3)[nH]c2c1 | MY330/88 | - | - | 62 µM |
| Cc1cc(C)nc(NC(=O)c2ccccc2O)n1 | MY330/88 | - | - | 1000 µM |
| Cc1ccc(Cn2c(=O)oc3ccc([N+](=O)[O-])cc3c2=O)cc1 | MY330/88 | - | - | 500 µM |
| CCCCCCCCCOc1ccc(NC(=O)OCCN2CCOCC2)cc1 | MY330/88 | - | - | 16 µM |
| Cc1cc(NC(=O)c2cc(Cl)ccc2O)no1 | MY330/88 | - | - | 62.5 µM |
| O=C(Nc1ccc(N2CCSCC2)cc1)c1ccc(Cl)cc1 | 103317 | - | - | >16 µg/mL |
| Cc1ccc2nc(SCc3ccccc3F)[nH]c2c1 | MY330/88 | - | - | 125 µM |
| Fc1ccc2oc(=S)n(-c3ccc(Cl)cc3)c(=S)c2c1 | MY330/88 | - | 14 d | 16 µM |
| O=[N+]([O-])c1cccc(F)c1CSc1ncn[nH]1 | MY330/88 | - | - | >1000 µM |
| O=C(CCC(=O)Nc1cccc(Cl)c1)Nc1cccc(Cl)c1 | NO 80/72 | - | - | >1000 µM |
| CCOc1cccc(NC(=O)OCCN2CCOCC2)c1 | MY330/88 | - | - | 500 µM |
| Cc1ccc2nc(SCc3ccccc3[N+](=O)[O-])[nH]c2c1 | MY330/88 | - | - | 125 µM |
| CCC(CO)NC[C@H]1O[C@H](CO)[C@@H](O)[C@@H]1O | 3 to 5 clinical isolates | - | - | >128 µg/mL |
| CC(C)c1c(O)cc(C(N=C(N)N)C(=O)NCC(=O)O)cc1O | Strain 1 | - | - | 6.25 µg/mL |
| N/C(=N\N=C\c1ccc(Cl)cc1)c1ccncc1 | INH resistant | - | - | 32 µg/mL |
| CCCCCCCN(CCCCCCC)C(=O)NC(CCC(=O)O)(CCC(=O)O)CCC(=O)O | VA14 | - | - | 18 µg/mL |
| COc1ccc(O)c(C(=S)NCc2ccccc2)c1 | MY330/88 | - | - | 4 µg/mL |
| COc1ccc(OC)c(/C=N/N=C(\N)c2ccncc2)c1 | INH resistant | - | - | 256 µg/mL |
| Cc1ccc(NC(=O)CCC(=O)Nc2ccc(C)c(C)c2)cc1C | NO 80/72 | - | - | >1000 µM |
| Fc1ccc(C(Cn2ccnc2)NCc2cccc3ccccc23)cc1 | CIP103317 | - | - | 8 µg/mL |
| Cc1cccc(O)c1C(=O)NCc1ccccc1 | MY330/88 | - | - | 62.5 µg/mL |
| O=C(CCC(=O)Nc1ccc(F)cc1)Nc1ccc(F)cc1 | NO 80/72 | - | - | 1000 µM |
| Cc1ccc2nc(SCc3ccc(F)c(F)c3)[nH]c2c1 | MY330/88 | - | - | 32 µM |

The last 7 rows once more:

SMILES,strain,method,conditions,value
COc1ccc(O)c(C(=S)NCc2ccccc2)c1,MY330/88,-,-,4 µg/mL
COc1ccc(OC)c(/C=N/N=C(\N)c2ccncc2)c1,INH resistant,-,-,256 µg/mL
Cc1ccc(NC(=O)CCC(=O)Nc2ccc(C)c(C)c2)cc1C,NO 80/72,-,-,>1000 µM
Fc1ccc(C(Cn2ccnc2)NCc2cccc3ccccc23)cc1,CIP103317,-,-,8 µg/mL
Cc1cccc(O)c1C(=O)NCc1ccccc1,MY330/88,-,-,62.5 µg/mL
O=C(CCC(=O)Nc1ccc(F)cc1)Nc1ccc(F)cc1,NO 80/72,-,-,1000 µM
Cc1ccc2nc(SCc3ccc(F)c(F)c3)[nH]c2c1,MY330/88,-,-,32 µM

Rows are shuffled and stem from different studies.